Human monoclonal antibodies against the spike receptor-binding domain (heavy:light variable regions). IC50 against pseudoviruses bearing the spike of naturally observed variants; lower = stronger; >10 µg/ml means not reached at the top dose. No active / inactive call. The stated detection limit is 0.0005 µg/ml; values near or below 0.001 µg/ml lie at the floor of the assay.
Columns and labels:
Assay in all cases: pseudovirus neutralization IC50; higher = weaker neutralization
[1] = molecular target: SARS-CoV-2 Omicron BA.1 spike pseudovirus
Description: (§1)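 Single-round VSV luciferase pseudovirus mixed with antibody dilutions for 1 h and put on Huh-7 cells for about a day; IC50 from the dose curve.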

[2] = molecular target: SARS-CoV-2 Omicron BA.2 spike pseudovirus
Description: as §1

[3] = molecular target: SARS-CoV-2 Omicron BA.2.75 spike pseudovirus
Description: as §1

[4] = molecular target: SARS-CoV-2 Omicron BA.5 spike pseudovirus
Description: as §1

[5] = molecular target: SARS-CoV-2 Omicron BQ.1.1 spike pseudovirus
Description: as §1

[6] = molecular target: SARS-CoV-2 Omicron XBB spike pseudovirus
Description: as §1

[7] = molecular target: SARS-CoV-2 early D614G spike pseudovirus
Description: as §1

| Binder | pseudovirus neutralization IC50 [1] | pseudovirus neutralization IC50 [2] | pseudovirus neutralization IC50 [3] | pseudovirus neutralization IC50 [4] | pseudovirus neutralization IC50 [5] | pseudovirus neutralization IC50 [6] | pseudovirus neutralization IC50 [7] |
| --- | --- | --- | --- | --- | --- | --- | --- |
| BD55-6069 (protein) chain 1: QVQLVQSGAEVKKPGSSVKVSCKASGGTFTNYVINWVRQAPGQGLEWMGRIIPIFGRANSAQKFQGRVNITADKSTSTAYMELSSLRSEDTAVYFCARVRRTGEYSGYDLTYFALDVWGQGTRVTVSS chain 2: DIQMTQSPSTLSASVGDRVTITCRASQTISSWLAWYQQKPGKAPKLLIYDASSLESGVPSRFSGSGSGTEFTLTISSLQPDDFATYYCQQYDYFGQGTKLEIK | > 10 µg/mL | > 10 µg/mL | > 10 µg/mL | > 10 µg/mL | > 10 µg/mL | > 10 µg/mL | 0.0506 µg/mL |
| BD55-1145 (protein) chain 1: QVQLVQSGAEVKKPGSSVKVSCKASGGTFSHYGISWVRQAPGQGPEWMGGIIPLFGAPNYAQKFQGRVTITADESTRTAYMELSSLRSEDTAVYYCARDRDIVLVTMGVPRRNAFDVWGQGTMVTVSS chain 2: ETVMTQSPATLSLSPGERATLSCRASHNVNTNLAWYQQKPGQAPRLLIYGASTRATGIPARFSGSGSGTDFTLTISSLQSEDFAVYYCQEYNKWPLTFGGGTKVEIK | > 10 µg/mL | > 10 µg/mL | > 10 µg/mL | > 10 µg/mL | > 10 µg/mL | > 10 µg/mL | > 10 µg/mL |
| BD55-6054 (protein) chain 1: QVQLQESGPGLVKPSQTLSLTCTVSGGSISSGDYYWSWIRQPPGKGLEWIGYIYYSVRTDYNPSLKSRVTISVDTSKNQFSLKLSSVTAADTAVYYCASRFTFTGYDILTGIRLATGAFDIWGQGTMVTVSP chain 2: EIVLTQSPGTLSLSPGERASLSCRASQGISSSSLAWYQQKPGQAPRLVIYDASSRAPGIPDRFSGTGSGTDFTLTISRLEPEDFVLYYCQQYGSSPLTFGGGTKVEIK | > 10 µg/mL | > 10 µg/mL | > 10 µg/mL | > 10 µg/mL | > 10 µg/mL | > 10 µg/mL | > 10 µg/mL |
| BD55-6049 (protein) chain 1: QLQLQESGPGLVKPSETLSLTCTVSGGSISSSGYYWGWIRQSPGKGLESIGIIYYTVTTFYNPSLESRVTISADTSKNQLSLKLTSATAADTAVYYCARLTGVDNGDSRHNWFDPWGQGTLVTVSS chain 2: QSVLTQPPSVSGAPGQRVTISCTGSSSNIGAGYDVHWYQQLPGAAPKLLIYSNTNRPSGVPDRFSGSRSATSASLVITGLQAEDEADFYCQSYDFSLRSRVFGGGTKLTVL | > 10 µg/mL | > 10 µg/mL | > 10 µg/mL | > 10 µg/mL | > 10 µg/mL | > 10 µg/mL | > 10 µg/mL |
| BD55-1146 (protein) chain 1: EVQLVEAGGGLAQPGRSLRLSCAASGFAFDDYAMHWVRQAPGKGLEWVSSISWNSGTIDYADFVQGRFTISRDSAKSTLYLQMNSLRAEDTAFYYCAKGRDITRFLFDAFDIWGRGTKVIVSS chain 2: DIQMTQSPSTLSASVGDRVTITCRASQGISTWLAWYQQKPGKAPKLLIYKASALQTGVPSRFSGGGSGTDFTLTISSLQPDDSATYYCQQYNSYSGYTFGQGTKLEIK | > 10 µg/mL | > 10 µg/mL | > 10 µg/mL | > 10 µg/mL | > 10 µg/mL | > 10 µg/mL | 5.52 µg/mL |
| BD55-6062 (protein) chain 1: EVQLVESGGGLVQPGGSLRLSCAASGFTFSNHAMHWVRQAPGKGLEYVSSITSDGSGTFYANSVGGRFTISRDNSKKTLYLQMGSLRSEDMAVYYCAREGPEIDVTLDYWGQGTLVTVSS chain 2: DIQMTQSPSSLSASVGDRVTITCRASQTIGKYLNWYQQKPGKPPKLLISGASNLQSGVPSRFSGGGSGADFTLTISSLQPEDFATYFCQQSYTGPQYTFGQGTKLDIK | > 10 µg/mL | > 10 µg/mL | > 10 µg/mL | > 10 µg/mL | > 10 µg/mL | > 10 µg/mL | > 10 µg/mL |

— the supplement of paper PMC9931576
